This assay in a line: Control, Sepharose 4 B gel blocked with ethanolamine. The following applies: 0.5 mg peptide applied; CNBr sites blocked with ethanolamine; irrigated with PBS.

The values that follow come from patent US5283321A (priority 1986, dated 1994).

With `CC(C)[C@H](NC(=O)[C@H](CO)NC(=O)[C@H](CCCNC(=N)N)NC(=O)[C@H](CCCNC(=N)N)NC(=O)[C@H](CO)NC(=O)[C@@H](NC(=O)[C@H](Cc1ccc(O)cc1)NC(=O)[C@@H]1CCCN1C(=O)[C@H](CC(N)=O)NC(=O)[C@@H]1CCCN1C(=O)[C@H](CC(N)=O)NC(=O)[C@H](C)NC(=O)[C@H](CCCNC(=N)N)NC(=O)[C@@H](NC(=O)[C@H](CCC(N)=O)NC(=O)[C@@H](N)CCCCN)[C@@H](C)O)[C@@H](C)O)C(=O)N[C@@H](C)C(=O)N[C@@H](CO)C(=O)O` [The synthetic peptide, H--Lys--Gln--Thr--Arg--Ala--Asn--Pro--Asn--Pro--Tyr--Thr----Ser--Arg--Arg--Ser--Val--Ala--Ser--OH], the “Synthesized peptide recovered from the eluate of control Sepharose 4 B column” value is listed as “All of the synthesized peptide was recovered from the eluate”.
